Measured values from several laboratories, pooled; numbers as filed in NIAID ChemDB.

All rows: growth or infection tests; agent: Candida glabrata

ECn: concentration that inhibits the pathogen or its effect by n%. Percent inhibition refers to the dose given; in toxicity tests it is the harm to the cells. MIC50, MIC90 and the like: level of inhibition, or share of isolates inhibited. Zones are inhibition diameters on agar. Rows are shuffled and stem from different studies.

C[C@@H]1CC(=O)N(CCCc2ccccc2)C1=O ; strain: CCC 115-2000 ; method: broth dilution / turbidity ; endpoint: MIC ; result: 62.5 µg/mL
O=C1S/C(=C\c2ccoc2)C(=O)N1CC(O)(Cn1nccn1)c1ccc(F)cc1F ; endpoint: MIC80 ; result: 0.29 µg/mL
COc1ccc(N2C(=O)CC(C)C2=O)cc1 ; strain: CCC 115-2000 ; method: broth dilution / turbidity ; endpoint: MIC ; result: 125 µg/mL
O/N=C\c1ccc(F)cc1 ; endpoint: MIC100 ; result: 7200 µM
CCC(C)CC(C)CCCCCCCCC(=O)N[C@H]1C[C@@H](O)[C@H](NCCN)NC(=O)[C@@H]2[C@@H](O)CCN2C(=O)[C@H]([C@H](O)CCN)NC(=O)[C@H]([C@H](O)[C@@H](O)c2ccc(O)cc2)NC(=O)[C@@H]2C[C@@H](O)CN2C(=O)[C@H]([C@@H](C)O)NC1=O ; method: broth dilution ; endpoint: MIC50 ; result: 0.25 µg/mL
C[C@H]1[C@H](O)[C@@H](C)/C=C/C=C/C=C/C=C/C=C/C=C/C=C/[C@H](O[C@@H]2O[C@H](C)[C@@H](O)[C@H](N)[C@@H]2O)C[C@@H]2O[C@](O)(C[C@@H](O)C[C@@H](O)CC[C@H](O)[C@@H](O)C[C@@H](O)CC(=O)O[C@H]1C)C[C@H](O)[C@H]2C(=O)O ; strain: MTCC 3019 ; method: visual reading ; endpoint: MFC ; result: 2 µg/mL
Nc1nc(/N=C/c2c(O)ccc3ccccc23)n[nH]1 ; method: agar diffusion / agar ; endpoint: inhibition ; dose: 200 µg/mL ; result: 39%
Cc1ccc(-c2c3c(N)c4c(nc3nc3c2c(C)nn3-c2ccccc2)CCCCC4)cc1 ; strain: CCC 115 ; method: broth dilution / absorbance ; endpoint: MIC100 ; result: >250 µg/mL
NC(=O)c1cc[n+](CCCC[n+]2ccccc2/C=N/O)cc1.[Br-].[Br-] ; method: broth dilution ; endpoint: EC50 ; result: >20 µg/mL
Nc1nc(/N=C/c2ccc[n-]2)n[nH]1.Nc1nc(/N=C/c2ccc[n-]2)n[nH]1.[O]=[V+2] ; method: agar diffusion / agar ; endpoint: inhibition ; dose: 200 µg/mL ; result: 75%
NC(=O)N/N=C/c1ccsc1 ; strain: LMA 1085 ; method: turbidity / absorbance ; endpoint: MIC80 ; result: >250 µg/mL
OC(Cn1cncn1)(Cn1cncn1)c1ccc(F)cc1F ; endpoint: MIC80 ; result: 0.29 µg/mL
O=[N+]([O-])c1cccc(/C=N\O)c1 ; endpoint: MIC100 ; result: 3010 µM
CC1CC(=O)N(c2ccc(Cl)cc2)C1=O ; strain: CCC 115-2000 ; method: broth dilution / turbidity ; endpoint: MIC ; result: 250 µg/mL
Cc1ccc(-c2c3c(N)c4c(nc3nc3c2c(C)nn3-c2ccccc2)CCC4)cc1 ; strain: CCC 115 ; method: broth dilution / absorbance ; endpoint: MIC100 ; result: >250 µg/mL
COc1ccccc1/C=N/c1n[nH]c(N)n1 ; method: agar diffusion / agar ; endpoint: inhibition ; dose: 200 µg/mL ; result: 0%
c1ccc(C(c2ccccc2)n2ccnc2)cc1 ; method: broth dilution ; endpoint: MFC ; result: 0.5 µg/mL
O=C1S/C(=C\c2ccc(F)cc2)C(=O)N1CC(O)(Cn1nccn1)c1ccc(F)cc1F ; endpoint: MIC80 ; result: 0.54 µg/mL
C=CC(C)(C)c1cc(C2CC(=O)c3c(cc(O)c(CC=C(C)C)c3O)O2)c(O)cc1O ; strain: hemoculture isolate 35202 ; method: agar diffusion / agar ; endpoint: zone ; dose: 2 mg/mL ; result: 11 mm
O/N=C/c1ccc(O)cc1 ; endpoint: MIC100 ; result: >7290 µM
CC(C)CC(O)C(=O)O ; strain: CCUG 32725 ; method: broth dilution ; endpoint: EC50 ; result: 18000 µg/mL
O/N=C/c1cc[n+](Cc2ccc(C[n+]3ccc(/C=N/O)cc3)s2)cc1.[Cl-].[Cl-] ; method: broth dilution ; endpoint: EC50 ; result: >20 µg/mL
COC(=O)[C@H]1[C@@H]2C[C@@H](O[C@@H]3O[C@H](C)[C@@H](O)[C@H](N)[C@@H]3O)/C=C/C=C/C=C/C=C/C=C/C=C/C=C/[C@H](C)[C@@H](O)[C@H](C)[C@H](C)OC(=O)C[C@H](O)C[C@H](O)[C@@H](O)CC[C@H](O)C[C@H](O)C[C@](O)(C[C@@H]1O)O2 ; strain: 40 isolates ; method: broth dilution ; conditions: pH 6 ; endpoint: EC90 ; result: 0.5 µg/mL
CC(C)C[C@H](N)C(=O)O ; strain: CCUG 32725 ; method: broth dilution ; endpoint: MFC100 ; result: >72000 µg/mL
CCC(C)CC(C)CCCCCCCCC(=O)N[C@H]1C[C@@H](O)[C@H](NCCN)NC(=O)[C@@H]2[C@@H](O)CCN2C(=O)[C@H]([C@H](O)CCN)NC(=O)[C@H]([C@H](O)[C@@H](O)c2ccc(O)cc2)NC(=O)[C@@H]2C[C@@H](O)CN2C(=O)[C@H]([C@@H](C)O)NC1=O ; strain: 40 isolates ; method: broth dilution ; conditions: pH 4 ; endpoint: EC90 ; result: 0.5 µg/mL
O/N=C/c1cccc[n+]1Cc1ccc(Br)s1.[Cl-] ; method: broth dilution ; endpoint: EC50 ; result: >20 µg/mL
C[C@@H]1C(=O)N(CCCCc2ccccc2)C(=O)[C@@H]1C ; strain: CCC 115-2000 ; method: broth dilution / turbidity ; endpoint: MIC ; result: 62.5 µg/mL
C[C@@H](c1ncncc1F)[C@](O)(Cn1cncn1)c1ccc(F)cc1F ; method: broth dilution ; endpoint: MIC50 ; result: 0.13 µg/mL
C[C@H]1[C@H](O)[C@@H](C)/C=C/C=C/C=C/C=C/C=C/C=C/C=C/[C@H](O[C@@H]2O[C@H](C)[C@@H](O)[C@H](N)[C@@H]2O)C[C@@H]2O[C@](O)(C[C@@H](O)C[C@@H](O)CC[C@H](O)[C@@H](O)C[C@@H](O)CC(=O)O[C@H]1C)C[C@H](O)[C@H]2C(=O)O ; strain: MTCC 3019 ; method: broth dilution ; endpoint: MIC100 ; result: 0.5 µg/mL
Cc1cc(C)c(N2C(=O)C=CC2=O)c(C)c1 ; strain: DSM 11226 ; method: broth dilution ; endpoint: MIC80 ; result: 1 µg/mL
COc1cc(/C=C2\SC(=S)NC2=O)cc(OC)c1OCC(O)(Cn1cncn1)c1ccc(F)cc1F ; strain: ATCC 90030 ; method: broth dilution ; endpoint: MIC50 ; result: 16 µg/mL
C[C@@H]1[C@H](O)[C@@H](C)/C=C/C=C/C=C/C=C/C=C/C=C/C=C/[C@H](O[C@@H]2O[C@H](C)[C@@H](O)[C@H](N)[C@@H]2O)C[C@@H]2O[C@](O)(C[C@@H](O)C[C@@H](O)[C@H](O)CC[C@@H](O)C[C@@H](O)CC(=O)O[C@H]1C)C[C@H](O)[C@H]2C(=O)O ; strain: LMA 90-1085 ; method: broth dilution ; endpoint: MIC80 ; result: 0.5 µg/mL
NC(=O)N/N=C/c1ccsc1/C=N/NC(N)=O ; strain: LMA 1085 ; method: turbidity / absorbance ; endpoint: MIC80 ; result: >250 µg/mL
C/C(=N\c1n[nH]c(N)n1)c1ccccn1.C/C(=N\c1n[nH]c(N)n1)c1ccccn1.[O]=[V+2] ; method: agar diffusion / agar ; endpoint: inhibition ; dose: 200 µg/mL ; result: 75%
Nc1ncccc1-c1cc(Cc2ccc(COc3ccccn3)cc2)no1 ; strain: 8655 ; method: broth dilution ; endpoint: MIC ; result: 0.03 µg/mL
O=C1S/C(=C\c2ccc(Cl)cc2)C(=O)N1CC(O)(Cn1nccn1)c1ccc(F)cc1F ; endpoint: MIC80 ; result: 4.19 µg/mL
O=C(c1ccccc1)C(c1ccccc1)n1cnc2ccccc21 ; method: broth dilution ; endpoint: MFC ; result: 256 µg/mL
CC(=O)N1CCN(c2ccc(OC[C@H]3CO[C@](Cn4ccnc4)(c4ccc(Cl)cc4Cl)O3)cc2)CC1 ; strain: G1 ; method: agar diffusion / agar ; endpoint: zone ; dose: 20 mg/mL ; result: 18 mm
c1ccc(C(c2ccccc2)n2nnc3ccccc32)cc1 ; method: agar ; endpoint: MIC90 ; result: >256 µg/mL
CCN1C(=O)C=CC1=O ; strain: DSM 11226 ; method: broth dilution ; endpoint: MIC80 ; result: 4 µg/mL
Clc1ccc(C(c2ccccc2)n2cnc3ccccc32)cc1 ; method: agar ; endpoint: MIC90 ; result: >256 µg/mL
C=CCc1ccc(OC)c(OC)c1 ; strain: 3249 ; method: turbidity ; endpoint: MIC90 ; result: 345 µg/mL
O=C1S/C(=C\c2ccco2)C(=O)N1CC(O)(Cn1nccn1)c1ccc(F)cc1F ; endpoint: MIC80 ; result: 0.29 µg/mL
CCOc1ccc2nc3cc(N=C4NC(=O)/C(=C\c5ccc([N+](=O)[O-])cc5)S4)ccc3c(N)c2c1 ; method: broth dilution ; endpoint: MFC ; result: >1000 µg/mL
NC=Nc1ccc(SCc2ccc(Cl)cc2)cc1 ; strain: BG2 ; endpoint: MFC ; result: 50 µM
O=C1C=CC(=O)N1CCN1CCOCC1 ; strain: DSM 11226 ; method: broth dilution ; endpoint: MIC80 ; result: 128 µg/mL
CCC(C)n1ncn(-c2ccc(N3CCN(c4ccc(OC[C@H]5CO[C@](Cn6cncn6)(c6ccc(Cl)cc6Cl)O5)cc4)CC3)cc2)c1=O ; strain: 40 isolates ; method: broth dilution ; conditions: pH 5 ; endpoint: EC90 ; result: >16 µg/mL
NC=Nc1cccc(SCc2cc(Br)cc(Br)c2)c1 ; strain: BG2 ; endpoint: MFC ; result: 10 µM
COc1ccccc1/C=N/c1n[nH]c(N)n1.COc1ccccc1/C=N/c1n[nH]c(N)n1.[O]=[V+2] ; method: agar diffusion / agar ; endpoint: inhibition ; dose: 200 µg/mL ; result: 39%
O=C1C=CC(=O)N1C1CCCCC1 ; strain: DSM 11226 ; method: broth dilution ; endpoint: MIC80 ; result: 1 µg/mL
c1ccc(C(c2ccccc2)n2cnc3ccccc32)cc1 ; method: agar ; endpoint: MIC90 ; result: >256 µg/mL
O=C1C=CC(=O)N1c1ccc([N+](=O)[O-])cc1 ; strain: DSM 11226 ; method: broth dilution ; endpoint: MIC80 ; result: 2 µg/mL
O/N=C\c1ccccc1Cl ; endpoint: MIC100 ; result: 2850 µM
O=C1C=CC(=O)N1c1ccccc1 ; strain: DSM 11226 ; method: broth dilution ; endpoint: MIC80 ; result: 2 µg/mL
Cc1ccc(-c2c3c(N)c4c(nc3nc3c2c(C)nn3-c2ccccc2)CCCC4)cc1 ; strain: CCC 115 ; method: broth dilution / absorbance ; endpoint: MIC80 ; result: >250 µg/mL
O/N=C\c1ccccc1O ; endpoint: MIC100 ; result: 3600 µM

The last 4 rows once more:

{"compound": "O/N=C\\c1ccccc1Cl", "endpoint": "MIC100", "result": "2850 µM"}
{"compound": "O=C1C=CC(=O)N1c1ccccc1", "strain": "DSM 11226", "method": "broth dilution", "endpoint": "MIC80", "result": "2 µg/mL"}
{"compound": "Cc1ccc(-c2c3c(N)c4c(nc3nc3c2c(C)nn3-c2ccccc2)CCCC4)cc1", "strain": "CCC 115", "method": "broth dilution / absorbance", "endpoint": "MIC80", "result": ">250 µg/mL"}
{"compound": "O/N=C\\c1ccccc1O", "endpoint": "MIC100", "result": "3600 µM"}